One experiment has as its target T1, HCoV-OC43 S-2P (HCoV-OC43, spike GenBank AIL49484, UniProt A0A0B4N7I3, stabilised).
T1 construct: also called soluble HCoV-OC43 S; source: Expi293F, transfected, purified from supernatant (HisTrap, Superdex)
Nature of the experiment: ELISA. Particulars: both partners purified.

The target in experiment [1] is HCoV-OC43 S, full-length, cell surface-expressed (HCoV-OC43, spike GenBank AIL49484, UniProt A0A0B4N7I3). Nature of the experiment: cell-based or functional assay.
In experiment [2] the target is T2, HCoV-OC43 S1-CTD (residues 318-608), Fc- and His-tagged (HCoV-OC43, spike GenBank AIL49484, UniProt A0A0B4N7I3).
T2 construct: also called HCoV-OC43 RBD; not shown: Fc-tag, C-terminal, kept; 8X HisTag, C-terminal, kept
Nature of the experiment: SPR. Particulars: both partners purified.

B1: H501-008 IgG (antibody, V domains shown)
VH: QVQLVQSGGGVVQPGRSLRLSCAVSGFTLDRYAMHWVRQAPGKALEWVALMSADGREQYYAESVKGRFTFSRDSSKNTLYLQMHNLRTDDSSVYFCAREGPMYYDAWSGRSYYNNYALDVWGRGTTVAVSS
VL: QSVLTQPPSVSAAPGQTVTISCSGSSSNIGDNYVSWYQQVPGTAPRLLVYDNNRRPLGIPDRFSGSKSGTSATLAIAGLQTGDEADYYCGTWDSSLSAGVFGGGTKLTVV
notes: also called H501–08; mAb H501–008; copies: 2 + 2
Regarding B1, the binding result with HCoV-OC43 S-2P is “binds”. The “IC50 of neutralisation of authentic HCoV-OC43 virus on Huh7 cells” value in experiment [1] was over 10 µg/mL.

B2: H501-008 Fab (Fab, V domains shown)
VH: B1 VH
VL: B1 VL
notes: also called H501–08 Fab
In experiment [2], B2 returned a Kd of about 25 nM.

By Kd is commonly meant the free concentration of one partner at which half of the binding sites on the other are occupied at equilibrium, for simple one-to-one binding. High values mean weaker binding, low ones tighter binding.

(Values after paper doi:10.1101/2025.10.29.685445 (bioRxiv, 2025).)
